Compound potency records, mixed from different reports. Data source: NIAID ChemDB in PubChem.

Shared fields: whole-cell or culture tests; agent: HIV-1; cell line: HeLa; read-out: EC50

An empty or dashed field is not shown. Conditions beyond the fields shown may differ between rows. ECn is the concentration giving n% inhibition of infection, replication or growth.

| SMILES | strain or isolate | mutations | read by | conditions | value |
|---|---|---|---|---|---|
| COc1cnc(-n2cnc(CO)n2)c2[nH]cc(C(=O)C(=O)N3CCc4c(cccc4-c4ccccn4)C3)c12 |  |  | luciferase |  | <0.1 µM |
| Cc1nnc(SCC(=O)Nc2ccccc2Br)n1-c1ccc(Cl)c2ccccc12 |  | Y188L |  |  | 0.2 µM |
| Nc1ccn([C@H]2C[C@H](O)[C@](CO)(CF)O2)c(=O)n1 |  | RT-M184V | β-galactosidase |  | 2 µM |
| O=C(O)Cc1cccc(CCCC2(O)CCN(C[C@H]3CN(CC4CCCCC4)C[C@@H]3c3ccccc3)CC2)c1 | BaL |  | β-galactosidase |  | <0.3 µM |
| CC#Cc1cn([C@@H]2O[C@H](COP(=O)(O)Oc3cccc(Cl)c3)[C@@H](O)[C@@H]2O)c(=O)[nH]c1=O | HXB2 |  | plaque count |  | >5 µM |
| Cc1cc(S(N)(=O)=O)ccc1NC(=O)COc1ccc(Cl)cc1C(=O)c1cc(Cl)cc(C#N)c1 |  | V106A |  |  | 0.0023 µM |
| Cn1c2ccccc2c2c1cc(C#N)c(=O)n2-c1ccc([N+](=O)[O-])cc1 | Recombinant | RT-M41L A62V S68N G112S M184V | luciferase |  | >0.0451 µM |
| Cc1ccc(NC(=O)CSc2nnc(C)n2-c2ccc(Cl)c3ccccc23)c(Cl)c1 |  | Y188L |  |  | 0.324 µM |
| CCn1nc(Cc2ccc(OC)cc2)cc1C1CCN(C[C@H]2CN([C@@H](C(=O)O)C(C)C)C[C@@H]2c2cccc(F)c2)CC1 | BaL |  | β-galactosidase | 50% human serum | <0.1 µM |
| Cc1cc(C)c2ccc(C)c(-n3c(C)nnc3SCC(=O)Nc3ccc(S(N)(=O)=O)cc3Cl)c2n1 |  |  |  |  | 0.0007 µM |
| Cc1nnc(C(C)C)n1C1C[C@H]2CC[C@@H](C1)N2CC[C@H](NC(=O)C1CCC(F)(F)CC1)c1ccccc1 |  |  | cell fusion / luminescence |  | 0.001 µM |
| Cc1cc(-n2c(C)nnc2SCC(=O)Nc2ccccc2Br)c2ccccc2c1C |  | Y188L |  |  | 0.098 µM |
| N#Cc1cc2[nH]c3ccccc3c2n(-c2ccc([N+](=O)[O-])cc2)c1=O | NNRTI-resistant | RT-K103N | luciferase |  | 0.094 µM |
| CC#Cc1cn([C@@H]2O[C@H](COP(=O)(O)Oc3ccccc3)[C@@H](O)[C@@H]2O)c(=O)[nH]c1=O | HXB2 |  | plaque count |  | >50 µM |
| O=C(O)c1ccc(CCCC2(O)CCN(C[C@H]3CN(CC4CCCCC4)C[C@@H]3c3ccccc3)CC2)cc1 | BaL |  | β-galactosidase |  | <1 µM |
| Cc1cc(S(N)(=O)=O)ccc1NC(=O)COc1ccc(Cl)cc1C(=O)c1cc(C#N)cc(C(N)=O)c1 |  | WTRVA |  |  | 1.1 µM |
| CCOc1cccc(Cc2cc(C3CCN(C[C@H]4CN([C@@H](C(=O)O)C(C)(C)C)C[C@@H]4c4cccc(F)c4)CC3)n(CC)n2)c1 | BaL |  | β-galactosidase | 50% human serum | <0.1 µM |
| CCn1nc(CCc2ccccc2)cc1C1CCN(C[C@H]2CN([C@@H](C(=O)O)C3CCCCC3)C[C@@H]2c2cccc(F)c2)CC1 | BaL |  | β-galactosidase |  | <0.011 µM |
| COc1ccnc2[nH]cc(C(=O)C(=O)N3CCN(C(=O)c4ccccc4)C[C@H]3C)c12 |  |  | cell fusion / luminescence |  | 0.0352 µM |
| CC#Cc1cn([C@@H]2O[C@H](COP(=O)(O)OCC(F)(F)F)[C@@H](O)[C@@H]2O)c(=O)[nH]c1=O | HXB2 |  | plaque count |  | >50 µM |
| Cc1nnc(SCC(=O)Nc2ccc(S(N)(=O)=O)cc2Cl)n1-c1cccc2cccnc12 |  | Y188L |  |  | 2.4 µM |
| Cn1nc(Cc2ccccc2)cc1C1CCN(C[C@H]2CN([C@@H](C(=O)O)C3CCCCC3)C[C@@H]2c2ccccc2)CC1 | BaL |  | β-galactosidase |  | <0.0037 µM |
| C[C@]1(CO)O[C@@H](n2ccc(N)nc2=O)C[C@@H]1O |  | RT-L74V | β-galactosidase |  | 0.0052 µM |
| CC#Cc1cn([C@@H]2O[C@H](COP(=O)(O)Oc3ccc(Cl)cc3)[C@@H](O)[C@@H]2O)c(=O)[nH]c1=O | HXB2 |  | plaque count |  | >5 µM |
| CC[C@@H](C)[C@H](C(=O)O)N1C[C@H](CN2CCC(c3cc(Cc4cccc5ccccc45)nn3CC)CC2)[C@@H](c2cccc(F)c2)C1 | BaL |  | β-galactosidase | 50% human serum | <0.033 µM |
| CCC(=C/[C@H](C)C/C=C/C(C)=C/[C@@H](C)C(=O)[C@@H](C)[C@H](O)[C@@H](C)C/C(C)=C/C(=O)O)/C=C/[C@@H]1OC(=O)C=C[C@@H]1C | BaL |  | p24 |  | 0.0006 µM |
| Cc1nnc(SCC(=O)Nc2ccccc2Br)n1-c1ccc(N(C)C)c2ccccc12 |  | Y188L |  |  | 0.24 µM |
| CNC(=O)c1cc(C#N)cc(C(=O)c2cc(Cl)ccc2OCC(=O)Nc2ccc(S(N)(=O)=O)cc2C)c1 |  | K103N |  |  | 0.98 µM |
| C#C[C@]1(CO)O[C@@H](n2cc(C)c(=O)[nH]c2=O)C[C@@H]1O |  | RT-L74V | β-galactosidase |  | 0.68 µM |
| O=C(O)[C@@H](C1CCCCC1)N1C[C@H](CN2CCC(CCCc3ccccc3)CC2)[C@@H](c2ccccc2)C1 | BaL |  | β-galactosidase |  | <0.011 µM |
| CC#Cc1cn([C@@H]2O[C@H](COP(=O)(NCCC)Oc3ccccc3)[C@@H](O)[C@@H]2O)c(=O)[nH]c1=O | HXB2 |  | plaque count |  | >50 µM |
| O=C(O)[C@@H](C1CCCCC1)N1C[C@H](CN2CCC(c3cc(Cc4ccccc4)nn3CC(F)(F)F)CC2)[C@@H](c2ccccc2)C1 | BaL |  | β-galactosidase |  | <0.033 µM |
| C=C[C@]1(CO)O[C@@H](n2cc(C)c(=O)[nH]c2=O)C[C@@H]1O | HXB2 |  | β-galactosidase |  | 8.1 µM |
| C=CCN(C(=O)OCc1ccc([N+](=O)[O-])cc1)C1CCN(C[C@H]2CN(C(=O)c3ccccc3Cl)C[C@@H]2c2ccccc2)CC1 | BaL |  | β-galactosidase |  | <0.001 µM |
| CC#Cc1cn([C@@H]2O[C@H](COP(=O)(O)Oc3c(C)cccc3C)[C@@H](O)[C@@H]2O)c(=O)[nH]c1=O | HXB2 |  | plaque count |  | >5 µM |
| CCn1nc(Cc2ccccc2)cc1C1CCN(C[C@H]2CN([C@H](CC(C)C)C(=O)O)C[C@@H]2c2ccccc2)CC1 | BaL |  | β-galactosidase |  | <0.0037 µM |
| COC(=O)N[C@H](C(=O)N[C@@H](Cc1ccccc1)[C@@H](O)CN(Cc1ccc(-c2ccccn2)cc1)NC(=O)[C@@H](NC(=O)OC)C(C)(C)C)C(C)(C)C | Site-directed PR mutant 06 | PR-I50L A71V | β-galactosidase |  | 0.0118 µM |
| CC#Cc1cn([C@@H]2O[C@H](COP(=O)(O)OCC)[C@@H](O)[C@@H]2O)c(=O)[nH]c1=O | HXB2 |  | plaque count |  | >50 µM |
| CCn1nc(Cc2ccc(O)cc2)cc1C1CCN(C[C@H]2CN([C@@H](C(=O)O)C(C)C)C[C@@H]2c2cccc(F)c2)CC1 | BaL |  | β-galactosidase |  | <0.0012 µM |
| CC(C)=CCOc1c2occc2cc2ccc(=O)oc12 | NL4-3 Recombinant VSV-pseudotyped |  | luciferase |  | <50 µM |
| CCn1ncc(CCc2ccccc2)c1C1CCN(C[C@H]2CN([C@@H](C(=O)O)C3CCCCC3)C[C@@H]2c2ccccc2)CC1 | BaL |  | β-galactosidase |  | <0.0004 µM |

Repeating the final 4 entries:

SMILES | strain or isolate | mutations | read by | conditions | value
CC#Cc1cn([C@@H]2O[C@H](COP(=O)(O)OCC)[C@@H](O)[C@@H]2O)c(=O)[nH]c1=O | HXB2 |  | plaque count |  | >50 µM
CCn1nc(Cc2ccc(O)cc2)cc1C1CCN(C[C@H]2CN([C@@H](C(=O)O)C(C)C)C[C@@H]2c2cccc(F)c2)CC1 | BaL |  | β-galactosidase |  | <0.0012 µM
CC(C)=CCOc1c2occc2cc2ccc(=O)oc12 | NL4-3 Recombinant VSV-pseudotyped |  | luciferase |  | <50 µM
CCn1ncc(CCc2ccccc2)c1C1CCN(C[C@H]2CN([C@@H](C(=O)O)C3CCCCC3)C[C@@H]2c2ccccc2)CC1 | BaL |  | β-galactosidase |  | <0.0004 µM